Compound potency records, mixed from different reports. Data source: NIAID ChemDB in PubChem.

All rows: whole-cell or culture tests

a–b is a range or a potency band.

| smiles | organism | strain or isolate | cells | method | endpoint | dose | result |
|---|---|---|---|---|---|---|---|
| Cc1cc(-c2ccc(N=Nc3c(N)c(S(=O)(=O)O)cc4cc(S(=O)(=O)O)ccc34)c(C)c2)ccc1N=Nc1c(N)ccc2cc(S(=O)(=O)O)ccc12 | Rhinovirus | - | Human amnion AV3 cells | cytopathic effect | inhibition | 50 µg/mL | 0% |
| COc1ccc(-n2c(C(=O)NCc3ccccc3)c3n(c2=O)CCN(c2ncnc4cc(Cl)c(Cl)cc24)C3)cc1 | Hepatitis B virus | - | HepG2.117 | PCR | EC50 | - | >5 µM |
| CCOC(=O)c1c(C)nc(NCCCCNc2ccnc3cc(Cl)ccc23)nc1-c1ccc(F)cc1 | Cryptococcus gattii | 547/OTTI-97-PI-10 | - | - | MIC99 | - | 16 µg/mL |
| CCOC(=O)c1ccc(OCCC2CCN(c3ccc(C)nn3)CC2)cc1 | Rhinovirus | 611-CV35 (ICAM-1 receptor group 59) | KB | neutral red | EC50 | - | 0.016 µM |
| Cc1cn([C@@H]2O[C@H](CO)[C@@H](O)[C@@H]2F)c(=O)nc1N | Varicella zoster virus | Asahikawa | HELF | plaque count | inhibition | 0.01 µg/mL | 27% |
| CC(=O)N[C@H]1[C@H]([C@H](O)[C@H](O)CO)OC(C(=O)O)=C[C@@H]1N=C(N)N | Influenza A virus | H1N1 A/Bayern/09/95 | MDCK | visual reading | EC50 | - | 3.6 µM |
| O=S(=O)([O-])c1ccc2c(O)cc(S(=O)(=O)[O-])cc2c1 | Herpes simplex virus | - | Human amnion AV3 cells | cytopathic effect | inhibition | 50 µg/mL | 0% |
| Oc1ccccc1C=Nc1ccccc1O | Cryptococcus neoformans | VM-MCMMPI | - | - | MIC99 | - | 5.7 µg/mL |
| CCOC(=O)/C=C/[C@H](C[C@@H]1CCNC1=O)NC(=O)[C@@H](CC(=O)[C@@H](NC(=O)c1cc(C)on1)C(C)C)Cc1ccc(F)cc1 | Rhinovirus | Isolate 6 | OHIO HELA-I | cytopathic effect / visual reading | EC50 | - | 0.02 µg/mL |
| O=S(=O)(O)c1cc(O)c2c(O)c(N=Nc3ccccc3)c(S(=O)(=O)O)cc2c1 | Adenovirus | TYPE 3 | Human amnion AV3 cells | cytopathic effect | inhibition | 10 µg/mL | 5% |
| Cc1nc(NCCCCNc2ccnc3cc(Cl)ccc23)nc(-c2ccccc2)c1C(=O)OC(C)C | Cryptococcus gattii | 1913 ER | - | - | MIC99 | - | 8 µg/mL |
| COc1ccc(-n2c(C(=O)NCc3cccc(C(F)(F)F)c3)c3n(c2=O)CCN(C(=O)c2ccc(Br)c(Cl)c2)C3)cc1 | Hepatitis B virus | - | HepG2.117 | PCR | EC50 | - | 0.1–0.5 µM |
| O=c1[nH]c(=O)n([C@H]2C[C@H](O)[C@@H](CO)O2)cc1I | Varicella zoster virus | Ohtomo | HELF | plaque count | inhibition | 0.1 µg/mL | 29% |
| NCS(=O)(=O)O | Rhinovirus | - | Human embryonic lung cells | cytopathic effect | inhibition | 10 µg/mL | 90% |
| O=C(NCc1ccccc1)c1c2n(c(=O)n1-c1cccc(Cl)c1)CCN(C(=O)c1ccc(Br)c(Cl)c1)C2 | Hepatitis B virus | - | HepG2.117 | PCR | EC50 | - | 0.5–5 µM |
| Nc1nc2c(ncn2COC(CO)CO)c(=O)[nH]1 | Human cytomegalovirus | VR6264 (ganciclovir-resistant) | - | plaque count | EC50 | - | 15 µM |
| Nc1nc(=O)n([C@@H]2O[C@H](CO)[C@@H](O)[C@@H]2F)cc1I | Varicella zoster virus | Asahikawa | HELF | plaque count | inhibition | 0.01 µg/mL | 26% |
| Nc1cc(S(=O)(=O)[O-])cc2cc(S(=O)(=O)[O-])ccc12 | Rhinovirus | - | Human amnion AV3 cells | cytopathic effect | inhibition | 50 µg/mL | 10% |
| C[C@@H](NC(=O)c1c2n(c(=O)n1-c1ccc(OC3CC3)cc1)C[C@H](C)N(C(=O)c1ccc(Br)c(Cl)c1)C2)c1ccccc1F | Hepatitis B virus | - | HepG2.117 | PCR | EC50 | - | 0.1–0.5 µM |
| COc1cc(-c2ccc(N=Nc3ccc4c(S(=O)(=O)O)cc(S(=O)(=O)O)c(N)c4c3O)c(OC)c2)ccc1N=Nc1ccc2c(S(=O)(=O)O)cc(S(=O)(=O)O)c(N)c2c1O | Adenovirus | TYPE 3 | Human amnion AV3 cells | cytopathic effect | inhibition | 50 µg/mL | 0% |
| Cc1nc(NCCCCNc2ccnc3cc(Cl)ccc23)nc(-c2ccccc2[N+](=O)[O-])c1C(=O)OC(C)C | Cryptococcus neoformans | LMM 820 | - | - | MIC99 | - | 8 µg/mL |
| C=Cc1cn([C@@H]2O[C@H](CO)[C@@H](O)[C@@H]2O)c(=O)[nH]c1=O | Varicella zoster virus | Asahikawa | HELF | plaque count | inhibition | 1 µg/mL | 69% |
| Oc1ccccc1N=Cc1cccc(O)c1O | Cryptococcus neoformans | 5396 | - | - | MIC99 | - | 4 µg/mL |
| C=CCc1ccc(OC)c(OC)c1 | Candida tropicalis | 3191 | - | turbidity | MIC90 | - | 345 µg/mL |
| O=c1[nH]c(=O)n([C@@H]2O[C@H](CO)[C@@H](O)[C@@H]2O)cc1/C=C/Cl | Varicella zoster virus | OKA | HELF | plaque count | inhibition | 0.01 µg/mL | 100% |
| CCOC(=O)c1c(C)nc(NCCCNc2ccnc3cc(Cl)ccc23)nc1-c1ccccc1 | Cryptococcus neoformans | WP | - | - | MIC99 | - | 8 µg/mL |

Repeating the final 2 entries:

| smiles | organism | strain or isolate | cells | method | endpoint | dose | result |
|---|---|---|---|---|---|---|---|
| O=c1[nH]c(=O)n([C@@H]2O[C@H](CO)[C@@H](O)[C@@H]2O)cc1/C=C/Cl | Varicella zoster virus | OKA | HELF | plaque count | inhibition | 0.01 µg/mL | 100% |
| CCOC(=O)c1c(C)nc(NCCCNc2ccnc3cc(Cl)ccc23)nc1-c1ccccc1 | Cryptococcus neoformans | WP | - | - | MIC99 | - | 8 µg/mL |

An empty or dashed field is not shown. Percent inhibition refers to the dose given; in toxicity tests it is the harm to the cells. ECn is the concentration giving n% inhibition of infection, replication or growth. Neighbouring rows are from separate reports. A number after MIC or MFC names an inhibition level or a share of isolates.